A mixed list of measured activities; the numbers were collected in NIAID ChemDB.

All rows: whole-cell or culture tests; agent: Mycobacterium tuberculosis

ECn is the concentration giving n% inhibition of infection, replication or growth. Inhibition is in % at the dose shown (toxicity tests: loss of growth or viability). Rows are shuffled and stem from different studies. MIC bound comes from a single tested concentration. An empty or dashed field is not shown. A number after MIC or MFC names an inhibition level or a share of isolates.

smiles | strain or isolate | mutations | read by | measure | tested at | result
O=C(CSc1nnc(-c2ccccn2)s1)N/N=c1/scc(-c2cccc([N+](=O)[O-])c2)n1-c1ccccc1 | Clinical isolate 180 |  |  | MIC |  | 80 µg/mL
COc1cc(O)cc2c1C(=O)O[C@@H](C)CCCCCCC2 |  |  | agar / visual reading | MIC |  | ≥200 µg/mL
C[C@@H]([C@H](NC(=O)[C@H](CC1CCCCC1)NC(=O)N[C@@H](Cc1c[nH]c2ccccc12)C(=O)O)C(=O)NC[C@H]1C[C@@H](O)[C@H](n2ccc(=O)[nH]c2=O)O1)N(C)C(=O)CN | H37Rv |  | resazurin / fluorescence | MIC50 |  | 0.09 µM
CCCCCCn1c(=O)c2c3c(cnc2n(CCCCCC)c1=O)C(=O)C1=C(C3=O)C2CCC1CC2 | H37Rv | pSMT1 luciferase reporter plasmid | luminescence | EC99 |  | 14.89 µg/mL
O=C(NN1C(=O)CSC1c1ccccc1F)c1cc(-c2cc(F)cc(F)c2)ccc1O | H37Rv |  | BACTEC | inhibition | 6.25 µg/mL | <90%
CC(C)=CCC/C(C)=C/CC1(C)SC(=O)C(C)=C1O | H37Rv |  |  | MIC50 |  | 96 µM
NNC(=O)c1ccncc1 | H37Rv | pSMT1 luciferase reporter plasmid | luminescence | EC90 |  | 0.04 µg/mL
CC(=O)Nc1ccc(/C=N/NC(N)=S)cc1 | H37Rv |  |  | MIC |  | 0.156 µg/mL
CCCCn1c(=O)c2c3c(cnc2n(CCCC)c1=O)C(=O)C1=C(C3=O)C2CCC1CC2 | H37Rv | pSMT1 luciferase reporter plasmid | luminescence | EC99 |  | 9.6 µg/mL
N[C@@H]1CONC1=O | RM22 |  |  | MIC |  | 30 µg/mL
Cc1ccc(NC(=S)NNC(=O)c2cc(-c3cc(F)cc(F)c3)ccc2O)cc1 | H37Rv |  | BACTEC | inhibition | 6.25 µg/mL | <90%
Cc1cc(O)c2c(c1)C(=O)CCC2=O | H37Rv |  |  | MIC |  | 100 µg/mL
C=C/C(C)=C/[C@@]1(C)SC(=O)C(C)=C1O | H37Rv |  |  | MIC90 |  | 125 µM
CSC(=S)n1nc(C)c(N=Nc2ccc(F)cc2)c1C | H37Rv |  | BACTEC | MIC |  | 32 µg/mL
COC(=O)[C@H](Cc1c[nH]c2ccccc12)NC(=O)N[C@@H](Cc1ccc2ccccc2c1)C(=O)N[C@H](C(=O)NC[C@H]1C[C@@H](O)[C@H](n2ccc(=O)[nH]c2=O)O1)[C@H](C)N(C)C(=O)CN | H37Rv |  | resazurin / fluorescence | MIC50 |  | 0.06 µM
Cc1cc(O)c2c(c1)C(=O)C(c1c(C)cc3c(c1O)C(=O)C=CC3=O)=CC2=O | H37Rv |  |  | MIC |  | 8 µg/mL
CN1CCOP(=O)(c2ccccc2)N1 | H37Rv |  | BACTEC | MIC |  | ≥128 µg/mL
C[C@@H]([C@H](NC(=O)[C@H](Cc1ccc2ccccc2c1)NC(=O)N[C@@H](Cc1c[nH]c2ccccc12)C(=O)OCc1ccccc1)C(=O)NC[C@H]1C[C@@H](O)[C@H](n2ccc(=O)[nH]c2=O)O1)N(C)C(=O)CN | H37Rv |  | resazurin / fluorescence | MIC99 |  | 0.039 µM
Cc1cccc(-n2c(-c3ccccc3)cs/c2=N/NC(=O)CSc2nnc(-c3ccccn3)s2)c1 | Clinical isolate 180 |  |  | MIC |  | 40 µg/mL
CO[C@H]1/C=C/O[C@@]2(C)Oc3c(C)c(O)c4c(O)c(c5c(c4c3C2=O)NC2(CCN(CC(C)C)CC2)N=5)=NC(=O)/C(C)=C\C=C\[C@H](C)[C@H](O)[C@@H](C)[C@@H](O)[C@@H](C)[C@H](OC(C)=O)[C@@H]1C | RM22 |  |  | MIC |  | 32 µg/mL
O=C(NCc1ccccc1)C1(C(=O)NCc2ccccc2)SSC(C(=O)NCc2ccccc2)(C(=O)NCc2ccccc2)SS1 | H37Rv |  |  | MIC bound |  | >6.25 µg/mL
CC1=C(O)C(C)(Cc2cccc(C(=O)c3ccccc3)c2)SC1=O | H37Rv |  |  | MIC50 |  | 50 µM
O=C(O)C1C2CC3C(OC(=O)C31)C2O | H37Rv |  | BACTEC | MIC bound |  | >12.5 µg/mL
O=C(CSc1nnc(-c2ccccn2)s1)N/N=c1/scc(-c2ccccc2Cl)n1-c1ccccc1 | H37Rv |  |  | MIC |  | >80 µg/mL
CCc1cc(C(N)=S)ccn1 | H37Rv |  |  | MIC |  | 1.25 µg/mL
NC(=O)c1ncn([C@@H]2O[C@H](COP(=O)(O)O)[C@@H](O)[C@H]2O)c1N |  |  | BACTEC | MIC bound |  | >6.25 µg/mL
Cc1ccc2nc(Cl)c(/C=C3/C=C(c4ccc(Cl)cc4)OC3=O)cc2c1 | H37Rv |  | resazurin | EC50 |  | >100 µg/mL
NC[C@H]1O[C@H](O[C@H]2[C@H](O)[C@@H](O[C@H]3O[C@H](CO)[C@@H](O)[C@H](N)[C@H]3O)[C@H](N)C[C@@H]2N)[C@H](O)[C@@H](O)[C@@H]1O | H37Rv |  |  | MIC |  | 1.5 µg/mL
CCCCCCn1c(=O)c2c3c(cnc2n(CCCCCC)c1=O)C(=O)C1=C(C3=O)C2CCC1C2 | H37Rv | pSMT1 luciferase reporter plasmid | luminescence | EC99 |  | 11.6 µg/mL
O=C1C(CC=C(Cl)Cl)=C(OC2OC(CO)C(O)C(O)C2O)C(=O)c2ccccc21 | H37Rv |  | BACTEC | MIC bound |  | ≤128 µg/mL
CO[C@H]1/C=C/O[C@@]2(C)Oc3c(C)c(O)c4c(O)c(cc(O)c4c3C2=O)NC(=O)/C(C)=C\C=C\[C@H](C)[C@H](O)[C@@H](C)[C@@H](O)[C@@H](C)[C@H](OC(C)=O)[C@@H]1C | H37Rv (amithiozone-resistant) |  |  | MIC |  | 6.3 µg/mL
O=C1OC(c2ccc(Cl)cc2)=C/C1=C/c1cc2cc(Cl)ccc2nc1Cl | H37Rv |  | resazurin | EC50 |  | >100 µg/mL
NC(=S)N=Nc1c2c3ccccc3[nH]c(N3CCC(O)CC3)c-2c2ccccc12 | H37Rv |  | resazurin / fluorescence | MIC90 |  | >20 µg/mL
Cn1c(=O)c2c3c(cnc2n(C)c1=O)C(=O)C1=C(C3=O)C2CCC1CC2 | H37Rv | pSMT1 luciferase reporter plasmid | luminescence | EC99 |  | 15.43 µg/mL
C[C@@H]([C@H](NC(=O)[C@H](CC1CCCCC1)NC(=O)N[C@@H](Cc1c[nH]c2ccccc12)C(=O)NCc1ccccc1)C(=O)NC[C@H]1C[C@@H](O)[C@H](n2ccc(=O)[nH]c2=O)O1)N(C)C(=O)CN | H37Rv |  | resazurin / fluorescence | MIC99 |  | >0.5 µM
CNC(=S)NNC(=O)c1cc(-c2cc(F)cc(F)c2)ccc1O | H37Rv |  | BACTEC | inhibition | 6.25 µg/mL | <90%
Cc1ccc2nc(Cl)c(/C=C3/C=C(c4ccccc4)OC3=O)cc2c1 | H37Rv |  | resazurin | EC50 |  | 49.85 µg/mL
C[C@H](NC(=O)[C@H](CO)NC(=O)CN)C(=O)O | H37Rv |  | BACTEC | inhibition | 12.8 µg/mL | 12%
C=C(C)/C=C/[C@]12C[C@H](C)C3CC[C@](C)(C#N)[C@@H](CC[C@H]1C)[C@@H]32 | H37Rv |  | resazurin | MIC100 |  | 8 µg/mL
CC(=O)Nc1nccnc1C(N)=O | H37Rv |  | BACTEC | inhibition | 12.5 µg/mL | 10%
CCN1C(=O)CS/C1=N/NC(=O)c1cc(-c2cc(F)cc(F)c2)ccc1O | H37Rv |  | BACTEC | inhibition | 6.25 µg/mL | <90%
CC(C)C1CCc2ncc3c(c2C1=O)C(=O)C1=C(C3=O)C2CCC1C2 | H37Rv | pSMT1 luciferase reporter plasmid | luminescence | EC90 |  | >100 µg/mL
COc1ccc(C2=C/C(=C/c3cc4cc(C)ccc4nc3Cl)C(=O)O2)cc1 | H37Rv |  | resazurin | EC50 |  | >100 µg/mL
CC(C)(N)CNC(C)(C)CO | H37Rv |  | BACTEC | MIC |  | ≥12.8 µg/mL
CO[C@H]1/C=C/O[C@@]2(C)Oc3c(C)c(O)c4c(O)c(c(/C=N/N5CCN(C)CC5)c(O)c4c3C2=O)NC(=O)/C(C)=C\C=C\[C@H](C)[C@H](O)[C@@H](C)[C@@H](O)[C@@H](C)[C@H](OC(C)=O)[C@@H]1C | ATCC 25177 |  | resazurin | MIC |  | 24 µg/mL
O=C(CSc1nnc(-c2ccccn2)s1)N/N=c1/scc(-c2ccccc2)n1-c1ccc([N+](=O)[O-])cc1 | Clinical isolate 331 |  |  | MIC |  | >80 µg/mL
Cc1ccc(S(=O)(=O)N/N=C(\CC(=O)c2c(C)n([O-])c3ccccc3[n+]2=O)C(=O)Nc2ccc(C)c(C)c2)cc1 | H37Rv |  | BACTEC | MIC bound |  | >12.5 µg/mL
CCNC(=S)NNC(=O)c1cc(-c2cc(F)cc(F)c2)ccc1O | H37Rv |  | BACTEC | inhibition | 6.25 µg/mL | 25%
C=C1[C@@H]2[C@H]3OC(=O)C(=C)[C@@H]3CCC(=C)[C@@H]2C[C@@H]1O | H37Rv |  | BACTEC | MIC |  | ≥12.5 µg/mL
O=C(NN1C(=O)CSC1c1cccc(F)c1)c1cc(-c2cc(F)cc(F)c2)ccc1O | H37Rv |  | BACTEC | inhibition | 6.25 µg/mL | <90%
CCCCCCNC(=O)[C@H](Cc1c[nH]c2ccccc12)NC(=O)N[C@@H](Cc1ccc2ccccc2c1)C(=O)N[C@H](C(=O)NC[C@H]1C[C@@H](O)[C@H](n2ccc(=O)[nH]c2=O)O1)[C@H](C)N(C)C(=O)CN | H37Rv |  | resazurin / fluorescence | MIC50 |  | 0.089 µM
CC(C)Cn1c(=O)c2c3c(cnc2n(CC(C)C)c1=O)C(=O)C1=C(C3=O)C2CCC1CC2 | H37Rv | pSMT1 luciferase reporter plasmid | luminescence | EC90 |  | 9.31 µg/mL
Cc1cc(O)c2c(c1)C(=O)C=CC2=O | H37Rv |  |  | MIC |  | 0.5 µg/mL
O=C(CSc1nnc(-c2ccccn2)s1)N/N=c1/scc(-c2cccc(Br)c2)n1-c1ccccc1 | Clinical isolate 331 |  |  | MIC |  | 10 µg/mL
COc1ccc(-c2nc3c(=O)n(C)c(=O)nc-3n(C)n2)cc1OC | H37Rv |  | BACTEC | inhibition | 12.5 µg/mL | 93%
O=C(NNC(=S)Nc1ccccc1)c1cc(-c2cc(F)cc(F)c2)ccc1O | H37Rv |  | BACTEC | inhibition | 6.25 µg/mL | <90%
Cc1ccc(NC2=CC(=O)C(=O)c3ccccc32)c(C)c1 | H37Rv |  | resazurin | MIC |  | ≤0.1 µg/mL
CO[C@H]1/C=C/O[C@@]2(C)Oc3c(C)c(O)c4c(O)c(cc(O)c4c3C2=O)NC(=O)/C(C)=C\C=C\[C@H](C)[C@H](O)[C@@H](C)[C@@H](O)[C@@H](C)[C@H](OC(C)=O)[C@@H]1C | Schiavo |  |  | MIC |  | 0.02 µg/mL
COC(=O)n1c(=O)nc2c3c(ncn21)Oc1c(c(-c2ccccc2)nn1-c1ccccc1)C3c1ccc(Cl)cc1 | H37Rv |  | resazurin | MIC |  | 6.25 µg/mL
CO[C@H]1/C=C/O[C@@]2(C)Oc3c(C)c(O)c4c(O)c(c(/C=N/N5CCN(C6CCCC6)CC5)c(O)c4c3C2=O)NC(=O)/C(C)=C\C=C\[C@H](C)[C@H](O)[C@@H](C)[C@@H](O)[C@@H](C)[C@H](OC(C)=O)[C@@H]1C | H37Rv |  |  | MIC |  | ≤0.125 µg/mL
CCC[CH2][Sn]1([CH2]CCC)[O]C(=O)CN=C(C)c2ccccc2[O]1 | H37Rv |  | BACTEC | MIC |  | 6.25 µg/mL
CCn1c(=O)c2c3c(cnc2n(CC)c1=O)C(=O)C1=C(C3=O)C2CCC1C2 | H37Rv | pSMT1 luciferase reporter plasmid | luminescence | EC90 |  | 5.32 µg/mL
COc1cccc2c1C(=O)c1c(O)c3c(c(O)c1C2=O)CC(O)(C1(C)OCCO1)CC3O | H37Rv |  | BACTEC | MIC bound |  | >12.5 µg/mL
C=C(C)/C=C/[C@]12C[C@H](C)C3CC[C@](C)(NC)[C@@H](CC[C@H]1C)[C@@H]32 | H37Rv |  | resazurin | MIC100 |  | 15 µg/mL
O=[N+]([O-])c1c(/C=N/Nc2ccccc2)oc(-c2ccc3c(c2)OCO3)c1-c1ccc2c(c1)OCO2 | H37Rv |  | BACTEC | inhibition | 12.5 µg/mL | 35%
CC1=C(O)C(C)(CCC(C)C)SC1=O | H37Rv |  |  | MIC90 |  | >300 µM
Cc1onc(-c2ccccc2)c1NC(=O)OC(C)c1cccnc1 | H37Rv |  | resazurin | inhibition | 6.25 µg/mL | 16%
Nc1ccc(C(=O)O)c(O)c1 | H37Rv |  |  | MIC |  | 0.25 µg/mL
CC(=O)OCC1OC(OC(C)=O)C(NS(=O)(=O)c2ccc(C)cc2)C(OC(C)=O)C1OC(C)=O | H37Rv |  | BACTEC | MIC bound |  | >12.5 µg/mL
C[C@@H]([C@H](NC(=O)[C@H](CC1CCCCC1)NC(=O)N[C@@H](Cc1c[nH]c2ccccc12)C(=O)OCc1ccccc1)C(=O)NC[C@H]1C[C@@H](O)[C@H](n2ccc(=O)[nH]c2=O)O1)N(C)C(=O)CN | H37Rv |  | resazurin / fluorescence | MIC50 |  | 0.009 µM

Repeating the first 7 entries:

| smiles | strain or isolate | mutations | read by | measure | tested at | result |
|---|---|---|---|---|---|---|
| O=C(CSc1nnc(-c2ccccn2)s1)N/N=c1/scc(-c2cccc([N+](=O)[O-])c2)n1-c1ccccc1 | Clinical isolate 180 |  |  | MIC |  | 80 µg/mL |
| COc1cc(O)cc2c1C(=O)O[C@@H](C)CCCCCCC2 |  |  | agar / visual reading | MIC |  | ≥200 µg/mL |
| C[C@@H]([C@H](NC(=O)[C@H](CC1CCCCC1)NC(=O)N[C@@H](Cc1c[nH]c2ccccc12)C(=O)O)C(=O)NC[C@H]1C[C@@H](O)[C@H](n2ccc(=O)[nH]c2=O)O1)N(C)C(=O)CN | H37Rv |  | resazurin / fluorescence | MIC50 |  | 0.09 µM |
| CCCCCCn1c(=O)c2c3c(cnc2n(CCCCCC)c1=O)C(=O)C1=C(C3=O)C2CCC1CC2 | H37Rv | pSMT1 luciferase reporter plasmid | luminescence | EC99 |  | 14.89 µg/mL |
| O=C(NN1C(=O)CSC1c1ccccc1F)c1cc(-c2cc(F)cc(F)c2)ccc1O | H37Rv |  | BACTEC | inhibition | 6.25 µg/mL | <90% |
| CC(C)=CCC/C(C)=C/CC1(C)SC(=O)C(C)=C1O | H37Rv |  |  | MIC50 |  | 96 µM |
| NNC(=O)c1ccncc1 | H37Rv | pSMT1 luciferase reporter plasmid | luminescence | EC90 |  | 0.04 µg/mL |